Values from PubChem BioAssay AID504761 (Drosophila RNAi Screening Center, 2011)

- Test: 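Genome-wide fly cell screen for genes dengue virus requires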 (primary screen)
- Cells: D.Mel-2 cells from Drosophila
- Reagents: long dsRNA against Drosophila genes
- Conditions: infection with dengue virus type 2; dose and infection time not stated
- Measurement: 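Per well on two replicate plates, imaging gave the percent of cells positive for viral envelope protein, ranked by infection, and a nuclear count of cells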
- Direction: infection score: higher = more virus-infected cells; cell count: higher = more cells in the well
- Active means: 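Low infection ranks in the two replicates (chance level up to 0.065) followed by a retest with a 1.5-fold or larger significant decrease, p below 0.05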
- Calls: active = confirmed: knock-down lowers infection; inactive = not picked or not confirmed
The deposit covers about 22,000 reagents; shown is a random part of those that have a named target and a result. Over the whole deposit, 116 (0.52%) got an active call. 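Calls depend on retest data that are not deposited; infection was ranked per plate without normalising between plates; the unit of the infection score is not given.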 Raw values vary from plate to plate and are shown uncorrected. Unmarked entries are inactive. The numbers tell different reagents against one gene apart. Names joined by + are all predicted targets of the reagent. Reagent sequences are not shown. Not stated in the record: the amount of reagent, the time to read-out.

| Target gene | reagent no. | infection score, replicate 1 | infection score, replicate 2 | cell count, replicate 1 | cell count, replicate 2 |
| --- | --- | --- | --- | --- | --- |
| LysS (Lysozyme S) | 1 | 4.27 | 0.62 | 5755 | 6331 |
| LysS (Lysozyme S) | 2 | 29.9 | – | 5959 | – |
| ppk27 (pickpocket 27) | 1 | 0.89 | 11.5 | 6609 | 5913 |
| ppk27 (pickpocket 27) | 2 | 5.16 | 19 | 7041 | 5588 |
| CG42404 | 1 | 1.15 | 3.99 | 6462 | 6436 |
| Top3alpha (Topoisomerase 3alpha) | 1 | 13.6 | 2.15 | 4997 | 6596 |
| CG13689 | 1 | 5.48 | 5.66 | 6237 | 6153 |
| CG11670 | 1 | 5.15 | 15.2 | 5374 | 6827 |
| VhaPPA1-1 (Vacuolar H[+] ATPase PPA1 subunit 1) | 1 | 1.18 (active) | 1.86 | 6025 | 6080 |
| VhaPPA1-1 (Vacuolar H[+] ATPase PPA1 subunit 1) | 2 | 0.2 | 0.39 | 5579 | 5578 |
| S6k (Ribosomal protein S6 kinase) | 1 | 6.05 | 5.26 | 5817 | 5642 |
| CG8534 | 1 | 6.11 | 5.96 | 6200 | 6144 |
| Sgt (small glutamine-rich tetratricopeptide containing protein) | 1 | 11.1 | 14.5 | 6372 | 6042 |
| Sgt (small glutamine-rich tetratricopeptide containing protein) | 2 | 5.04 | 4.42 | 6037 | 6065 |
| CG11828 | 1 | 3.63 | 12.3 | 6335 | 6721 |
| CG11828 | 2 | 5.31 | 2.69 | 6665 | 6313 |
| CG11828 | 3 | 4.87 | 9.05 | 6585 | 6516 |
| kek2 (kekkon 2) | 1 | 4.18 | 6.02 | 6191 | 6026 |
| kek2 (kekkon 2) | 2 | 19 | 6.59 | 4822 | 6010 |
| CG16723 | 1 | 0.22 | 13.9 | 450 | 4502 |
| CG16723 | 2 | 16.2 | 14.9 | 6402 | 5196 |
| CG1371 | 1 | 5.51 | 3.27 | 5967 | 6357 |
| cg (combgap) | 1 | 4.02 | 5.82 | 7271 | 7435 |
| cg (combgap) | 2 | 5.79 | – | 1209 | 375 |
| CG6724 | 1 | 5.39 | 5.86 | 6202 | 6402 |
| Atg8a (Autophagy-related 8a) | 1 | 5.62 | 1.61 | 6231 | 6331 |
| Atg8a (Autophagy-related 8a) | 2 | 11.4 | 7.68 | 4798 | 3749 |
| Rpp30 (RNaseP protein p30) | 1 | 2.66 | 22.2 | 5946 | 5054 |
| CG31627 | 1 | 2.6 | 1.21 | 6808 | 6998 |
| CG34353 | 1 | 5.23 | – | 5261 | 304 |
| CG34353 | 2 | 13.2 | – | 6174 | 335 |
| CG34353 | 3 | – | 1.04 | 323 | 865 |
| CG34353 | 4 | 8.74 | 15.5 | 3868 | 3423 |
| CG34353 | 5 | 1.15 | 2.64 | 5905 | 6521 |
| CG34353 | 6 | – | 13.5 | – | 6476 |
| CG34353 | 7 | 3.64 | 7.29 | 6795 | 6323 |
| Nmt (N-myristoyl transferase) | 1 | 3.14 | 3.59 | 5228 | 5324 |
| fzr2 (fizzy-related 2) | 1 | 19.3 | 31.8 | 6086 | 4318 |
| CG7988 | 1 | 4.42 | 0.8 | 6545 | 6849 |
| CG16888 | 1 | 2.19 | 2.3 | 6472 | 6924 |
| CG5391 | 1 | 2.92 | 8.98 | 6605 | 5749 |
| su(sable) (suppressor of sable) | 1 | 4.98 | 5.82 | 6890 | 5948 |
| CG18477 + CG31780 | 1 | 2.5 | 1.62 | 6638 | 6839 |
| CG33137 | 1 | 3.08 | 16 | 6550 | 6434 |
| CG8301 | 1 | 3.71 | 3.08 | 5123 | 5326 |
| CG8301 | 2 | 17.4 | 21.4 | 6133 | 5185 |
| CG6738 | 1 | 4.47 | 5.79 | 1991 | 5437 |
| CG6738 | 2 | 6.01 | 11.2 | 5603 | 6043 |
| CG14708 | 1 | 11.6 | 7 | 5414 | 6147 |
| CG14708 | 2 | 11.5 | 1.29 | 6495 | 6601 |
| Cpr62Bc (Cuticular protein 62Bc) | 1 | 3.26 | 1.14 | 6359 | 6490 |
| Cpr62Bc (Cuticular protein 62Bc) | 2 | 3.35 | 0.87 | 6184 | 5655 |
| row (relative of woc) | 1 | 6.72 | 4.18 | 5502 | 5959 |
| row (relative of woc) | 2 | 15.9 | 30.8 | 4914 | 4716 |
| Gli (Gliotactin) | 1 | 12 | 11.1 | 6271 | 6074 |
| CG11030 | 1 | 2.04 | 4.39 | 5347 | 6081 |
| CG11030 | 2 | 1.81 | 5.63 | 5529 | 5830 |
| CG3448 | 1 | 1.19 | 1.38 | 6146 | 5719 |
| CG3448 | 2 | 6.53 | 4.5 | 6339 | 6439 |
| Dd (Dullard) | 1 | 6.05 | 1.75 | 6746 | 6817 |
| CG9386 | 1 | 10.8 | 5.44 | 7106 | 7273 |
| Alg1 (ALG1, chitobiosyldiphosphodolichol beta-mannosyltransferase) | 1 | – | 28.5 | 431 | 3875 |
| Alg1 (ALG1, chitobiosyldiphosphodolichol beta-mannosyltransferase) | 2 | – | – | 333 | 363 |
| tweek | 1 | 1.85 | 0.51 | 5744 | 5870 |
| tweek | 2 | 20 | 2.3 | 4485 | 6644 |
| tweek | 3 | 0.72 | 2.05 | 6377 | 6476 |
| CG9213 | 1 | 3.76 | 1.92 | 6272 | 6367 |
| CG9213 | 2 | 4.24 | 4.95 | 6697 | 5975 |
| CNT1 + CG13742 | 1 | 8.39 | 8.59 | 3717 | 5949 |
| CNT1 + CG13742 | 2 | 10 | – | 3718 | 360 |
| otk (off-track) | 1 | 6.38 | 8.47 | 6894 | 6813 |
| otk (off-track) | 2 | 9.24 | 20.6 | 1082 | 5920 |
| Crtc (CREB-regulated transcription coactivator) | 1 | 0.96 | 1.55 | 6447 | 6834 |
| Crtc (CREB-regulated transcription coactivator) | 2 | 7.42 | 2.03 | 5608 | 6068 |

Quoted from the listing (9 entries):
| Target gene | reagent no. | infection score, replicate 1 | infection score, replicate 2 | cell count, replicate 1 | cell count, replicate 2 |
| --- | --- | --- | --- | --- | --- |
| CG11828 | 2 | 5.31 | 2.69 | 6665 | 6313 |
| CG11828 | 3 | 4.87 | 9.05 | 6585 | 6516 |
| kek2 (kekkon 2) | 1 | 4.18 | 6.02 | 6191 | 6026 |
| kek2 (kekkon 2) | 2 | 19 | 6.59 | 4822 | 6010 |
| CG16723 | 1 | 0.22 | 13.9 | 450 | 4502 |
| CG16723 | 2 | 16.2 | 14.9 | 6402 | 5196 |
| CG1371 | 1 | 5.51 | 3.27 | 5967 | 6357 |
| cg (combgap) | 1 | 4.02 | 5.82 | 7271 | 7435 |
| cg (combgap) | 2 | 5.79 | – | 1209 | 375 |
